{"source": "paper PMC7114565", "about": "(Virus Research, 2016)", "tested_on": "SARS-CoV isolate Frankfurt-1"}
{"smiles": "C/C=C/C[C@@H](C)[C@@H](O)[C@H]1C(=O)N[C@@H](CC)C(=O)N(C)[C@H](C)C(=O)N(CC)[C@@H](C(C)C)C(=O)N[C@@H](C(C)C)C(=O)N(C)[C@@H](CC(C)C)C(=O)N[C@@H](C)C(=O)N[C@H](C)C(=O)N(C)[C@@H](CC(C)C)C(=O)N(C)[C@@H](CC(C)C)C(=O)N(C)[C@@H](C(C)C)C(=O)N1C", "note": "[ALV, alisporivir]", "values": [{"measurement": "SI (CC50/EC50)", "value": ">6.0"}]}
